Results of unrelated studies side by side (data: NIAID ChemDB).

Common to all: growth or infection tests

a–b is a range or a potency band. Percent inhibition refers to the dose given; in toxicity tests it is the harm to the cells. Zones are inhibition diameters on agar. Conditions beyond the fields shown may differ between rows. A number after MIC or MFC names an inhibition level or a share of isolates. An empty or dashed field is not shown. ECn: concentration that inhibits the pathogen or its effect by n%.

structure | cells | strain or isolate | measure | organism | read by | setting | tested at | value
CCCCCCCCCCCCCCCCCCCCCCOCC(C)(COCCCCCCCCCCCCCCCCCCCCCC)CO[C@]1(C(=O)O)C[C@H](OS(=O)(=O)O)[C@@H](NC(C)=O)[C@H]([C@H](OS(=O)(=O)O)[C@@H](COS(=O)(=O)O)OS(=O)(=O)O)O1 | MA-104 | Hosokawa (serotype 4) | EC50 | Rotavirus | plaque count |  |  | 1.7 µg/mL
CC(C)c1ccc(NC(=O)NNC(=O)c2ccncc2)cc1 |  | My 6509/96 | MIC100 | Mycobacterium kansasii | broth dilution | 7 d |  | 8 µM
Cn1nc(Cc2ccc(Cl)cc2)c2ccccc2c1=O |  | Clinical isolate (IM 972751) | MIC80 | Cryptococcus neoformans | broth dilution |  |  | 62.5 µg/mL
CCCCCCCCCCCC[N+](C)(C)COCCC(C)CCCC(C)C |  | ATCC 6538 | MBC | Staphylococcus aureus |  |  |  | 23.8 µM
Oc1cccc(C=Nc2ccccc2O)c1 |  | 5396 | MIC | Cryptococcus neoformans | broth dilution |  |  | 5.7 µg/mL
C=CCc1ccc(O)c(OC)c1 |  | 2854 | MIC90 | Candida tropicalis | turbidity |  |  | 485 µg/mL
COc1ccc2nc(Cl)c(C3OC(c4sc5ccc(Cl)cc5c4Cl)=NN3C(C)=O)cc2c1 |  | ATCC 27853 | zone | Pseudomonas aeruginosa | agar diffusion / agar |  | 40 µg/mL | 14 mm
O=C(NNC(=O)c1ccncc1)Nc1ccc(Br)cc1Br |  | My 6509/96 | MIC100 | Mycobacterium kansasii | broth dilution | 14 d |  | >125 µM
COc1c(CN(C)C)cccc1C1OC(c2ccncc2)=NN1C(C)=Nc1ccccc1F |  | MTCC 2453 | MIC | Pseudomonas aeruginosa |  |  |  | 25 µg/mL
CCC[C@H](O)C[C@@H]1CC[C@H](C)CCCCC(=O)N(C)[C@@H](Cc2ccc(OCCO)cc2)C(=O)O1 |  | ERG25 | MIC | Saccharomyces cerevisiae |  |  |  | 50 µg/mL
CN[C@H]1CC[C@@H](c2ccc(Cl)c(Cl)c2)c2ccccc21 |  | Bt31 | MFC | Cryptococcus neoformans | broth dilution |  |  | 8 µg/mL
O=C(NN1C(=O)CSC1C1C(c2ccccc2)=Nc2ccc(Cl)cc21)N1c2ccccc2C=Cc2ccccc21 |  | MTCC-1782 | zone | Aspergillus terreus | agar diffusion |  | 750 µg/mL | 13 mm
CCCCCCCCCCCC[N+](C)(C)COCCCCCCCCC |  | ATCC33592 | MBC | Staphylococcus aureus |  |  |  | 14.8 µM
CCC(CC)[C@H](NC(C)=O)[C@@H]1[C@H](O)[C@@H](C(=O)O)C[C@H]1N=C(N)N | MDCK | Influenza A/Johannesburg/33/94 (H3N2) | EC50 | Influenza A virus |  |  |  | 0.16 µM
Nc1nc(=O)n2ccn([C@@H]3C[C@@H](O)[C@H](CO)O3)c2n1 |  | TYPE 2 | EC50 | Dengue virus |  |  |  | >100 µM
CCCCCCCCCCCC[N+](C)(C)COC1CCCCCCCCCCC1 |  | ATCC 6538 | MBC | Staphylococcus aureus |  |  |  | 3.36 µM
Cc1c(NC(=O)C2CCC2)ccc2nc(NC(C)(C)C(=O)N(C)CCc3ccccn3)oc(=O)c12 | VERO |  | EC90 | Herpes simplex virus 1 | plaque count |  |  | 12.5 µM
C[C@@H](c1ncncc1F)[C@](O)(Cn1cncn1)c1ccc(F)cc1F |  |  | MIC90 | Aspergillus lentulus | broth dilution |  |  | 2 µg/mL
CSc1ccc(C2OC(c3sc4ccc(Cl)cc4c3Cl)=NN2C(C)=O)cc1 |  | ATCC 27853 | zone | Pseudomonas aeruginosa | agar diffusion / agar |  | 40 µg/mL | 13 mm
CC(C)(C)c1ccc(CSc2ncnc3c2ncn3[C@@H]2O[C@H](CO)[C@@H](O)[C@H]2O)cc1 |  | RH adenosine kinase-deficient | inhibition | Toxoplasma gondii |  |  | 50 µM | 0.1%
C[C@@H]1[C@H](O)[C@@H](C)/C=C/C=C/C=C/C=C/C=C/C=C/C=C/[C@H](O[C@@H]2O[C@H](C)[C@@H](O)[C@H](N)[C@@H]2O)C[C@@H]2O[C@](O)(C[C@@H](O)C[C@@H](O)[C@H](O)CC[C@@H](O)C[C@@H](O)CC(=O)O[C@H]1C)C[C@H](O)[C@H]2C(=O)O |  | Clinical isolate (IM 000319) | MIC | Cryptococcus neoformans | broth dilution |  |  | 0.13 µg/mL
CCN(CC)C(=O)c1ccc2nc3ccccc3c(NCCc3c[nH]c4ccccc34)c2c1 | BHK |  | EC50 | West Nile virus | replicon |  |  | 7 µM
CCCC(CCC)C(NC(C)=O)C1C(N=C(N)N)CC(C(=O)O)C1O | MDCK | Influenza A/Beijing/32/92 (H3N2) | EC50 | Influenza A virus |  |  |  | 0.05 µM
COc1c(CN(C)C)cccc1C1OC(c2ccncc2)=NN1C(C)=Nc1cccc(F)c1 |  | MTCC 2453 | MIC | Pseudomonas aeruginosa |  |  |  | 12.5 µg/mL
O=C(NN=CC1C(c2ccccc2)=Nc2ccc(Cl)cc21)N1c2ccccc2C=Cc2ccccc21 |  | MTCC-3567 | zone | Aspergillus oryzae | agar diffusion |  | 750 µg/mL | 11 mm
Nc1nc(=O)n2ccn(C3O[C@H](CO)[C@@H](O)[C@H]3O)c2n1 |  |  | EC50 | West Nile virus |  |  |  | >100 µM
Brc1ccc(Cn2ccc3nc(-c4cccc(I)c4)nc-3c2)cc1 | MDBK | PE515 | EC50 | Bovine viral diarrhea virus | cytopathic effect |  |  | 0.0042 µg/mL
Cc1[nH]n(C(=O)c2sc3ccc(Cl)cc3c2Cl)c(=O)c1N=Nc1ccccc1[N+](=O)[O-] |  | ATCC 27853 | zone | Pseudomonas aeruginosa | agar diffusion / agar |  | 40 µg/mL | 11 mm
Clc1cccc(-c2nc3ccn(Cc4ccc(Br)cc4)cc-3n2)c1 | MDBK | PE515 | EC50 | Bovine viral diarrhea virus | cytopathic effect |  |  | 0.18 µg/mL
CC(=O)N1N=C(c2sc3ccc(Cl)cc3c2Cl)OC1c1ccccc1[N+](=O)[O-] |  | ATCC 27853 | zone | Pseudomonas aeruginosa | agar diffusion / agar |  | 40 µg/mL | 26 mm
FC(F)(F)c1ccc(Cn2ccc3nc(-c4ccccc4)nc-3c2)cc1 | MDBK | PE515 | EC50 | Bovine viral diarrhea virus | cytopathic effect |  |  | 0.029 µg/mL
OC[C@H]1O[C@@H](n2cnc3c(SCc4ccc(OC(F)(F)F)cc4)ncnc32)[C@H](O)[C@@H]1O |  | RH (WILD TYPE) | inhibition | Toxoplasma gondii |  |  | 10 µM | 35.1%
CC(=O)N[C@H]1[C@H]([C@H](O)[C@H](O)CO)OC(C(=O)O)=C[C@@H]1N=C(N)N | MDCK | H1N1 A/TEXAS/36/91 | EC50 | Influenza A virus |  |  |  | 0.22 µM
Cc1ccccc1-c1nc2ccn(Cc3ccc(Br)cc3)cc-2n1 | MDBK | PE515 | EC50 | Bovine viral diarrhea virus | cytopathic effect |  |  | 0.033 µg/mL
CCN(C(=O)N(C)CCc1ccncc1)c1nc2ccc(NC(=O)OC(C)(C)C)c(C)c2c(=O)o1 | VERO |  | EC90 | Herpes simplex virus 1 | plaque count |  |  | <3.2 µM
Cc1cccc(C)c1N=Nc1c(C)[nH]n(C(=O)c2sc3ccc(Cl)cc3c2Cl)c1=O |  | ATCC 27853 | zone | Pseudomonas aeruginosa | agar diffusion / agar |  | 40 µg/mL | 12 mm
CCCCCCCCCCCCOC(=O)[C@]1(O)C[C@@H](O)[C@@H](O)[C@H](OC(=O)/C=C/c2ccc(O)c(O)c2)C1 |  | SLV 549 | MIC50 | Aspergillus nomius | absorbance |  |  | 1250 µg/mL
O=C(NN=CC1C(c2ccccc2)=Nc2ccccc21)N1c2ccccc2C=Cc2ccccc21 |  | MTCC-3567 | zone | Aspergillus oryzae | agar diffusion |  | 750 µg/mL | 12 mm
Fc1cc(Nc2nnc(-c3ccncc3)o2)ccc1Br |  | My 235/80 | MIC100 | Mycobacterium kansasii | broth dilution | 21 d |  | >125 µM
Fc1ccccc1-c1nc2ccn(Cc3ccc(I)cc3)cc-2n1 | MDBK |  | EC50 | Bovine viral diarrhea virus | cytopathic effect |  |  | 0.088 µg/mL
Nc1nc(=O)n2ccn([C@H]3C[C@H](O)[C@@H](CO)O3)c2n1 |  | TYPE 2 | EC50 | Dengue virus |  |  |  | >100 µM
CCCCCCCNC(=O)NNC(=O)c1ccncc1 |  | My 6509/96 | MIC100 | Mycobacterium kansasii | broth dilution | 7 d |  | 32 µM
CCCCCCCCCCCC[N+](C)(C)COCC(CC)CCC |  | ATCC 6538 | MBC | Staphylococcus aureus |  |  |  | 25.5 µM
CN1CCN(C(=O)c2ccc3c(NCCc4c[nH]c5ccccc45)c4ccccc4nc3c2)CC1 | BHK |  | EC50 | West Nile virus | replicon |  |  | 10.5 µM
Cc1ccc(N=Nc2c(C)[nH]n(C(=O)c3sc4ccc(Cl)cc4c3Cl)c2=O)c(C)c1 |  | ATCC 27853 | zone | Pseudomonas aeruginosa | agar diffusion / agar |  | 40 µg/mL | 10 mm
C=Cc1cn(OC(CO)CO)c(=O)[nH]c1=O |  |  | EC50 | Duck hepatitis B virus |  |  |  | 0.3–1 µg/mL
CCOC(=O)c1cnc(NCCCCNc2ccnc3cc(Cl)ccc23)nc1C |  | 196L/03 | MIC99 | Cryptococcus gattii |  |  |  | 8 µg/mL
CC(C)(C)c1ccc(Cn2ccc3nc(-c4ccccc4)nc-3c2)cc1 | MDBK | PE515 | EC50 | Bovine viral diarrhea virus | cytopathic effect |  |  | 0.07 µg/mL
O=C(NCc1ccc(Cl)cc1)c1c[nH]c2ccc(CCCO)cc2c1=O |  | RAI | EC50 | Varicella zoster virus | plaque count |  |  | 0.1 µM
CCCCCCCCCCCC[N+](C)(C)COCCC(C)C |  | ATCC33592 | MBC | Staphylococcus aureus |  |  |  | 7.14 µM
CCOC(=O)c1c(C)nc(NCCCCNc2ccnc3cc(Cl)ccc23)nc1-c1ccccc1[N+](=O)[O-] |  | WP | MIC99 | Cryptococcus neoformans |  |  |  | 5.7 µg/mL
Nc1nc2c(ncn2C=C2CC2CO)c(=O)[nH]1 | HFF |  | EC50 | Murine cytomegalovirus | plaque count |  |  | 11.6 µM
CCCCCCCC[N+](C)(C)COCC(CC)CCCC |  | ATCC 6538 | MBC | Staphylococcus aureus |  |  |  | 7.4 µM
c1ccc(-c2nc3ccn(Cc4ccncc4)cc-3n2)cc1 | MDBK | PE515 | EC50 | Bovine viral diarrhea virus | cytopathic effect |  |  | 0.041 µg/mL
CCCCCCCCCCCC[N+](C)(C)COCC(C)C |  | ATCC 6538 | MBC | Staphylococcus aureus |  |  |  | 14.9 µM
CC(NC(=S)Nc1ccc(NC(=O)c2ccccc2F)cc1)c1ccc(F)cc1 | HFF | JAB1244 | EC50 | Varicella zoster virus | ELISA |  |  | 0.59 µg/mL
Fc1ccc(Cn2ccc3nc(-c4c(F)cccc4F)nc-3c2)c(F)c1 | MDBK | PE515 | EC50 | Bovine viral diarrhea virus | cytopathic effect |  |  | 0.865 µg/mL
CCN(C(=O)N(C)CCc1ccccn1)c1nc2ccc(NC(=O)CCCNC(=O)c3ccccn3)c(C)c2c(=O)o1 | VERO |  | EC90 | Herpes simplex virus 1 | plaque count |  |  | >12.5 µM
N=C(N)c1ccc2nc(-c3ccc(-c4nc5ccc(C(=N)N)cc5[nH]4)[nH]3)[nH]c2c1 |  | Isolate 1 (strain 2-76) | MFC | Candida albicans |  |  |  | 0.78 µg/mL
CN1CCN(C(=O)c2ccc3nc4ccccc4c(Oc4ccccc4)c3c2)CC1 | BHK |  | EC50 | West Nile virus | replicon |  |  | 28 µM
Oc1ccccc1N=Cc1ccc2c(c1)OCO2 |  | GM | MIC | Cryptococcus neoformans | broth dilution |  |  | 5.8 µg/mL
Cc1c(NC(=O)OC(C)(C)C)ccc2nc(N(CC(C)(C)C)C(=O)N(C)CCc3ccccn3)oc(=O)c12 | VERO |  | EC90 | Herpes simplex virus 1 | plaque count |  |  | 5.9 µM

For reference, 8 entries again:

structure | cells | strain or isolate | measure | organism | read by | setting | tested at | value
Nc1nc(=O)n2ccn([C@H]3C[C@H](O)[C@@H](CO)O3)c2n1 |  | TYPE 2 | EC50 | Dengue virus |  |  |  | >100 µM
O=C(NN=CC1C(c2ccccc2)=Nc2ccccc21)N1c2ccccc2C=Cc2ccccc21 |  | MTCC-3567 | zone | Aspergillus oryzae | agar diffusion |  | 750 µg/mL | 12 mm
CCN(C(=O)N(C)CCc1ccncc1)c1nc2ccc(NC(=O)OC(C)(C)C)c(C)c2c(=O)o1 | VERO |  | EC90 | Herpes simplex virus 1 | plaque count |  |  | <3.2 µM
Cc1ccccc1-c1nc2ccn(Cc3ccc(Br)cc3)cc-2n1 | MDBK | PE515 | EC50 | Bovine viral diarrhea virus | cytopathic effect |  |  | 0.033 µg/mL
CCCCCCCCCCCC[N+](C)(C)COC1CCCCCCCCCCC1 |  | ATCC 6538 | MBC | Staphylococcus aureus |  |  |  | 3.36 µM
CCC(CC)[C@H](NC(C)=O)[C@@H]1[C@H](O)[C@@H](C(=O)O)C[C@H]1N=C(N)N | MDCK | Influenza A/Johannesburg/33/94 (H3N2) | EC50 | Influenza A virus |  |  |  | 0.16 µM
C=CCc1ccc(O)c(OC)c1 |  | 2854 | MIC90 | Candida tropicalis | turbidity |  |  | 485 µg/mL
Clc1cccc(-c2nc3ccn(Cc4ccc(Br)cc4)cc-3n2)c1 | MDBK | PE515 | EC50 | Bovine viral diarrhea virus | cytopathic effect |  |  | 0.18 µg/mL